The chains behind the UniProt entries cited, without tags or fusion partners. Residues count along the entry.
UniProt P27958, 1027-1657 limits assumed: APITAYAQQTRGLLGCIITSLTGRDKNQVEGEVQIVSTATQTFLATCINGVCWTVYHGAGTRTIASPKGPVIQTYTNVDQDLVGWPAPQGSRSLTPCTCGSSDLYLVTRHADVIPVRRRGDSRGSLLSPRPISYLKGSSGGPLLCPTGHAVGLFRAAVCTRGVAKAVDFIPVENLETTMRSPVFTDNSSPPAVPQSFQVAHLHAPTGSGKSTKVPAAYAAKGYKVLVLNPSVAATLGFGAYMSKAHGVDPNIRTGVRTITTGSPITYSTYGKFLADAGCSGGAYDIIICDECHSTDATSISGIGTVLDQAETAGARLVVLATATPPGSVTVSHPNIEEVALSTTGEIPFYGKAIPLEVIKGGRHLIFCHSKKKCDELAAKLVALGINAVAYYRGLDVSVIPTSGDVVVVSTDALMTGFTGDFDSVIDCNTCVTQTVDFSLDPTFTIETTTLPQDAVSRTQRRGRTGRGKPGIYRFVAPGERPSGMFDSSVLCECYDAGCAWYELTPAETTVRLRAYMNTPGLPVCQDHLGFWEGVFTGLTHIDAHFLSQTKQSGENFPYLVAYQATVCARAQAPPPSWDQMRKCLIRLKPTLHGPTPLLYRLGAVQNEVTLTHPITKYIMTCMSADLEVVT

In patent US20110081315A1, “NOVEL MACROCYCLIC INHIBITORS OF HEPATITIS C VIRUS REPLICATION” (INTERMUNE, INC., priority 2009, published 2011):

How the values were obtained:
hepatitis C replicon = hepatitis C replicon EC50 assay; format: cell-based, Hepatitis C virus
Source text: (§1) NS3-NS4 inhibition activity can be determined using known assay methods. For example, NS3/NS4 complexes may be formed and inhibitory concentrations of test compounds determined as described in U.S. Patent Application Publication Number 2007/0054842 paragraph numbers 1497-1509, which is incorporated herein by reference in its entirety. Similarly, hepatitis C replicon EC50 may be determined using known assay methods such as described in U.S. Patent Application Publication Number 2007/0054842 paragraph numbers 1510-1515, which is incorporated herein by reference in its entirety. Assays may be conducted at ambient temperature (23° C.) in assay buffer containing 50 mM Tris-HCl, pH 7.5, 15% glycerol, 0.6 mM Lauryldimethylamine Oxide (LDAO), 25 μM NS4A peptide, and 10 mM Dithiothreitol (DTT).

NS3/NS4 complexes = NS3/NS4 complexes (Hepatitis C virus genotype 1a, UniProt P27958); test: NS3/NS4 inhibition assay (IC50); format: biochemical; conditions: NS3/NS4 activity; 23° C., 25 μM NS4A peptide
Source text: as §1

| Compound | EC50 (hepatitis C replicon) [nM] | IC50 (NS3/NS4 complexes) [nM] |
| --- | --- | --- |
| CCOc1csc(-c2cccc3c2nc(O[C@@H]2C[C@H]4C(=O)N[C@]5(C(=O)NS(=O)(=O)N(C)C)C[C@H]5/C=C\CCCCC[C@H](NC(=O)OC(C)(C)C)C(=O)N4C2)n3C(C)C)n1 | < 10 | < 10 |
| CC(C)n1c(O[C@@H]2C[C@H]3C(=O)N[C@]4(C(=O)NS(=O)(=O)C5(C)CC5)C[C@H]4/C=C\CCCCC[C@H](NC(=O)OC(C)(C)C)C(=O)N3C2)nc2c(-c3nc4c(s3)CCCC4)cccc21 | < 10 | < 10 |
| CC(C)n1c(O[C@@H]2C[C@H]3C(=O)N[C@]4(C(=O)O)C[C@H]4/C=C\CCCCC[C@H](NC(=O)OC(C)(C)C)C(=O)N3C2)nc2c(-c3nc(C4CCCC4)cs3)cccc21 | > 100 | < 10 |
| CC(C)(C)OC(=O)N[C@H]1CCCCC/C=C\[C@@H]2C[C@@]2(C(=O)NS(=O)(=O)OC2CC2)NC(=O)[C@@H]2C[C@@H](OC(=O)N3Cc4cccc(F)c4C3)CN2C1=O | 10 to 100 | < 10 |
| CCn1c(O[C@@H]2C[C@H]3C(=O)N[C@]4(C(=O)NS(=O)(=O)N(C)C)C[C@H]4/C=C\CCCCC[C@H](NC(=O)OC(C)(C)C)C(=O)N3C2)nc2c(-c3nc(C(C)C)c(C)s3)cccc21 [Compound 1432] | 10 to 100 | < 10 |
| CC(C)c1csc(-c2cccc3c2nc(O[C@@H]2C[C@H]4C(=O)N[C@]5(C(=O)NS(=O)(=O)C6(C)CC6)C[C@H]5/C=C\CCCCC[C@H](NC(=O)OC5COC5)C(=O)N4C2)n3C(C)C)n1 | 10 to 100 | < 10 |
